The subject of the series is MT4 cells. Nature of the series: Test B: Cytotoxicity Assay (uninfected MT4 cells). The class given is cell-based. The settings on record: 5 days, CellTiter-Glo.

Take `Cn1nc(NS(C)(=O)=O)c2c(Cl)ccc(-c3ccc(C#CC(C)(C)O)nc3[C@H](Cc3cc(F)cc(F)c3)NC(=O)Cn3nc(C(F)F)c4c3C(F)(F)[C@@H]3C[C@H]43)c21` [Compound A]: half-maximal cytotoxicity (CC50) was put at 21.8 µM. That is a double-digit micromolar value.
Under `Cn1nc(NS(C)(=O)=O)c2c(Cl)ccc(-c3ccc(C#CC(C)(C)O)nc3[C@H](Cc3cc(F)cc(F)c3)NC(=O)Cn3nc(C(F)(F)F)c4c3C(F)(F)[C@@H]3C[C@H]43)c21` [Compound B] stands 14.5 µM.
